Compound potency records, mixed from different reports. Data source: NIAID ChemDB in PubChem.

Common to all: growth or infection tests; organism: Cryptococcus neoformans; read-out: MIC

a–b is a range or a potency band. Neighbouring rows are from separate reports. An empty or dashed field is not shown.

| SMILES | strain | result |
|---|---|---|
| C[C@H]1[C@H](O)[C@@H](C)/C=C/C=C/C=C/C=C/C=C/C=C/C=C/[C@H](O[C@@H]2O[C@H](C)[C@@H](O)[C@H](N)[C@@H]2O)C[C@@H]2O[C@](O)(C[C@@H](O)C[C@@H](O)CC[C@H](O)[C@@H](O)C[C@@H](O)CC(=O)O[C@H]1C)C[C@H](O)[C@H]2C(=O)O |  | 0.016–16 µg/mL |
| Cc1c(N)nc([C@H](CC(N)=O)NC[C@H](N)C(N)=O)nc1C(=O)N[C@H](C(=O)N[C@H](C)[C@@H](O)[C@H](C)C(=O)N[C@H](C(=O)NCCc1nc(-c2nc(C(=O)NCCC[S+](C)C)cs2)cs1)[C@@H](C)O)C(O[C@@H]1O[C@@H](CO)[C@@H](O)[C@H](O)[C@@H]1O[C@H]1O[C@H](CO)[C@@H](O)[C@H](OC(N)=O)[C@@H]1O)c1cnc[nH]1 | Isolate 94-181 | 1.57 µg/mL |
| C/C=C\C(C)=C\[C@H](C)C(=O)C[C@H](O)CC1CC(=O)NC(=O)C1 | KF-33 | 50 µg/mL |
| COc1ccc2c(c1)CCC(NCc1ccccc1)C2 |  | 64 µM |
| CN[C@@H]1[C@H](O[C@@H]2OC[C@@H](O)[C@H](O)[C@H]2O)[C@@H](O)[C@H](O[C@H]2c3cc(C)c(C(=O)OCC(=O)O)c(O)c3-c3c(cc4c(c3O)C(=O)c3cc(OC)cc(O)c3C4=O)[C@@H]2O)O[C@@H]1C | IAM 4514 | >100 µg/mL |
| CO/C1=C\C(C)=C\[C@@H](C)[C@@H](O)[C@@H](C)C/C(C)=C/C=C/[C@H](OC)[C@@H]([C@@H](C)[C@@H](O)[C@H](C)[C@@]2(O)C[C@@H](O)[C@H](C)[C@@H](C(C)C)O2)OC1=O | H99 ΔCNA1 mutant | >62.2 µg/mL |
| C=C(CCC1(OC)O[C@H]2C[C@H]3[C@@H]4CC=C5C[C@@H](O)[C@H](O)[C@@H](O[C@@H]6OC[C@@H](O)[C@H](O)[C@H]6O)[C@]5(C)[C@H]4CC[C@]3(C)[C@H]2[C@@H]1C)CO[C@@H]1O[C@H](CO)[C@@H](O)[C@H](O)[C@H]1O |  | ≥20 µg/mL |
| CCCCCCCCCCCCCCCC(=O)NC1CC(O)C(O)NC(=O)C2C(O)C(C)CN2C(=O)C(C(O)CC(N)=O)NC(=O)C(C(O)C(O)c2ccc(O)c(S(=O)(=O)O)c2)NC(=O)C2CC(O)CN2C(=O)C(C(C)O)NC1=O | YC203 | 50 µg/mL |
| N#[N+]c1nc(-c2ccc(F)cc2F)[nH]c1C(=O)N1CCCC1 | L29 | 200 µg/mL |
| Nc1[nH]c(=O)ncc1F |  | 0.03–64 µg/mL |
| CN[C@@H]1[C@H](O[C@@H]2OC[C@@H](O)[C@H](O)[C@H]2O)[C@@H](O)[C@H](O[C@H]2c3cc(C)c(C(=O)N(C)CC(=O)O)c(O)c3-c3c(cc4c(c3O)C(=O)c3cc(OC)cc(O)c3C4=O)[C@@H]2O)O[C@@H]1C | IAM 4514 | >100 µg/mL |
| N#[N+]c1nc(-c2ccc(Cl)cc2Cl)[nH]c1C(=O)N1CCCC1 | L29 | 50 µg/mL |
| C[C@@H]1C[C@@H]([C@H](O)CC2CC(=O)NC(=O)C2)C(=O)[C@@H](C)C1 |  | 6.25 µg/mL |
| CCCCCCCCCNC1CCc2cc(O)ccc2C1 |  | 8 µM |
| CCC(C)CC(C)CCCCCCCCC(=O)N[C@H]1C[C@@H](O)[C@H](NCCN)NC(=O)[C@@H]2[C@@H](O)CCN2C(=O)[C@H]([C@H](O)CCN)NC(=O)[C@H]([C@H](O)[C@@H](O)c2ccc(O)cc2)NC(=O)[C@@H]2C[C@@H](O)CN2C(=O)[C@H]([C@@H](C)O)NC1=O | H99 ΔCNA1 mutant | 6.25 µg/mL |
| CN[C@@H]1[C@H](O[C@@H]2OC[C@@H](O)[C@H](O)[C@H]2O)[C@@H](O)[C@H](O[C@H]2c3cc(C)c(C(=O)NCCN)c(O)c3-c3c(cc4c(c3O)C(=O)c3cc(OC)cc(O)c3C4=O)[C@@H]2O)O[C@@H]1C | IAM 4514 | >100 µg/mL |
| CCCc1nc([N+]#N)c(C(=O)N2CCCC2)[nH]1 | L29 | 50 µg/mL |
| CC[C@@]1(OC(=O)CN)C(=O)OCc2c1cc1n(c2=O)Cc2cc3c(N)c4c(cc3nc2-1)OCO4 | H99 | >100 µg/mL |
| CC(=O)N1CCN(c2ccc(OC[C@H]3CO[C@](Cn4ccnc4)(c4ccc(Cl)cc4Cl)O3)cc2)CC1 |  | 1 µg/mL |
| C[C@@H]1CC[C@@]2(OC1)O[C@H]1C[C@H]3[C@@H]4CC=C5C[C@@H](O)[C@H](O)[C@@H](O[C@@H]6OC[C@@H](O)[C@H](O)[C@H]6O[C@@H]6O[C@@H](C)[C@H](O)[C@@H](O)[C@H]6O)[C@]5(C)[C@H]4CC[C@]3(C)[C@H]1[C@@H]2C |  | ≥20 µg/mL |
| N#[N+]c1nc(-c2ccc([N+](=O)[O-])cc2)[nH]c1C(=O)N1CCCC1 | L29 | 50 µg/mL |
| CC1OC(OC2C(O[C@H]3CC[C@@]4(C)C(CC[C@]5(C)C4CC=C4C6CC(C)(C)CC[C@]6(C(=O)O)CC[C@]45C)[C@]3(C)CO)OCC(O)C2O)C(O)C(OC2OCC(O)C(O)C2O)C1O | KCTC 7224 | 25 µg/mL |
| N#[N+]c1nc(-c2cccc(Cl)c2)[nH]c1C(=O)N1CCCC1 | L29 | 100 µg/mL |
| CC[C@@]1(OC(=O)CN)C(=O)OCc2c1cc1n(c2=O)Cc2cc3cc4c(cc3nc2-1)OCO4 | H99 | 1.56 µg/mL |
| CCC(C)n1ncn(-c2ccc(N3CCN(c4ccc(OC[C@H]5CO[C@](Cn6cncn6)(c6ccc(Cl)cc6Cl)O5)cc4)CC3)cc2)c1=O | KCTC 7224 | 0.13 µg/mL |
| CCCCCOc1ccc(-c2cc(-c3ccc(C(=O)N[C@H]4C[C@@H](O)[C@@H](O)NC(=O)[C@@H]5[C@@H](O)[C@@H](C)CN5C(=O)[C@H]([C@H](O)CC(N)=O)NC(=O)[C@H]([C@H](O)[C@@H](O)c5ccc(O)c(OS(=O)(=O)O)c5)NC(=O)[C@@H]5C[C@@H](O)CN5C(=O)[C@H]([C@@H](C)O)NC4=O)cc3)no2)cc1 |  | 4–128 µg/mL |
| [Cl-].[Li+] | H99 ΔCNA1 mutant | >42 µg/mL |
| C[C@@H]1CC[C@@]2(OC1)O[C@H]1C[C@H]3[C@@H]4CC=C5C[C@@H](O[C@@H]6O[C@H](CO)[C@H](O[C@@H]7O[C@@H](C)[C@H](O)[C@@H](O)[C@H]7O)[C@@H](O)[C@H]6O[C@@H]6O[C@@H](C)[C@H](O)[C@@H](O)[C@H]6O)CC[C@]5(C)[C@H]4CC[C@]3(C)[C@H]1[C@@H]2C |  | ≥20 µg/mL |
| Oc1ccc2c(c1)CC(Nc1ccccc1)CC2 |  | 64 µM |
| CCCCCOc1ccc(-c2ccc(-c3ccc(C(=O)N[C@H]4C[C@@H](O)[C@@H](O)NC(=O)[C@@H]5[C@@H](O)[C@@H](C)CN5C(=O)[C@H]([C@H](C)O)NC(=O)[C@H]([C@H](O)[C@@H](O)c5ccc(O)cc5)NC(=O)[C@@H]5C[C@@H](O)CN5C(=O)[C@H]([C@H](C)O)NC4=O)cc3)cc2)cc1 |  | 1–128 µg/mL |
| CCCCCCCCCNC1CCc2ccc(O)cc2C1 |  | 0.5 µM |
| C[C@@H]1CC[C@@]2(OC1)O[C@H]1C[C@H]3[C@@H]4CC=C5C[C@@H](O)[C@H](O)[C@@H](O[C@@H]6OC[C@@H](O)[C@H](O)[C@H]6O[C@@H]6O[C@@H](C)[C@H](O)[C@@H](O)[C@H]6O)[C@]5(C)[C@H]4CC[C@]3(C)[C@@]1(O)[C@@H]2C |  | 10 µg/mL |
| C[C@@H]1O[C@@H](O[C@H]2[C@H](O[C@H]3CC[C@@]4(C)[C@@H](CC[C@]5(C)[C@@H]4CC=C4[C@@H]6CC(C)(C)CC[C@]6(C(=O)O)CC[C@]45C)[C@]3(C)CO)OC[C@H](O)[C@@H]2O)[C@H](O)[C@H](O)[C@H]1O | KCTC 7224 | 25 µg/mL |
| CN[C@@H]1[C@H](O[C@@H]2OC[C@@H](O)[C@H](O)[C@H]2O)[C@@H](O)[C@H](O[C@H]2c3cc(C)c(C(=O)NCS(=O)(=O)O)c(O)c3-c3c(cc4c(c3O)C(=O)c3cc(OC)cc(O)c3C4=O)[C@@H]2O)O[C@@H]1C | IAM 4514 | >50 µg/mL |
| N#[N+]c1nc(-c2cccc(F)c2)[nH]c1C(=O)N1CCCC1 | L29 | 100 µg/mL |

The first 2 rows once more:

SMILES	strain	result
C[C@H]1[C@H](O)[C@@H](C)/C=C/C=C/C=C/C=C/C=C/C=C/C=C/[C@H](O[C@@H]2O[C@H](C)[C@@H](O)[C@H](N)[C@@H]2O)C[C@@H]2O[C@](O)(C[C@@H](O)C[C@@H](O)CC[C@H](O)[C@@H](O)C[C@@H](O)CC(=O)O[C@H]1C)C[C@H](O)[C@H]2C(=O)O		0.016–16 µg/mL
Cc1c(N)nc([C@H](CC(N)=O)NC[C@H](N)C(N)=O)nc1C(=O)N[C@H](C(=O)N[C@H](C)[C@@H](O)[C@H](C)C(=O)N[C@H](C(=O)NCCc1nc(-c2nc(C(=O)NCCC[S+](C)C)cs2)cs1)[C@@H](C)O)C(O[C@@H]1O[C@@H](CO)[C@@H](O)[C@H](O)[C@@H]1O[C@H]1O[C@H](CO)[C@@H](O)[C@H](OC(N)=O)[C@@H]1O)c1cnc[nH]1	Isolate 94-181	1.57 µg/mL